Literature values in patent US20230277682A1 (priority 2022, published 2023).

Legend:
Conditions in all cases: literature; cited from earlier work
[1] = system: vaccinia virus strain DII
[2] = system: Newcastle disease virus strain Miyadera (NDV)
arenavirus Junin (JUNV) = system: arenavirus Junin (JUNV)

Verrucarin A
significant antiviral activity: antiviral activity against vaccinia virus strain DII [1] | antiviral activity against Newcastle disease virus strain Miyadera (NDV) [2] | antiviral activity against arenavirus Junin (JUNV) (arenavirus Junin (JUNV))
